According to publication PMC4964355:
Values joined by “and” are separate entries in the source; they are usually repeats but may differ in a detail not shown here. Equal values may be shown once.

Legend:
[1] = molecular target: Sup35-NM, a protein segment comprising N-terminal and middle domains of the yeast S. cerevisiae prion Sup35 (S. cerevisiae); experiment: SEC; time course of self-assembly after removal of urea by desalting; HiLoad Superdex 200 pg 16/60, 1 mL/min; 20 mM Tris pH 8.0, 100 mM NaCl; 4 °C; samples at 2 to 32 h
[2] = molecular target: Sup35-NM, a protein segment comprising N-terminal and middle domains of the yeast S. cerevisiae prion Sup35 (S. cerevisiae); experiment: SEC; dis-assembly of AG fibrils (1 month, 20 μM) boiled with 2% SDS for 5 min, cooled, injected; room temperature
[3] = molecular target: Sup35-NM, a protein segment comprising N-terminal and middle domains of the yeast S. cerevisiae prion Sup35 (S. cerevisiae); experiment: native gel or EMSA; BN-PAGE of AG fibrils under SDS without boiling
[4] = molecular target: Sup35-NM, a protein segment comprising N-terminal and middle domains of the yeast S. cerevisiae prion Sup35 (S. cerevisiae); experiment: native gel or EMSA; BN-PAGE of AG fibrils (20 μM, over 1 month) after 2% SDS under boiling for 5 min
[5] = molecular target: Sup35-NM, a protein segment comprising N-terminal and middle domains of the yeast S. cerevisiae prion Sup35 (S. cerevisiae); experiment: SEC; dis-assembly of AG fibrils under SDS without boiling; room temperature
[6] = molecular target: Sup35-NM, a protein segment comprising N-terminal and middle domains of the yeast S. cerevisiae prion Sup35 (S. cerevisiae); experiment: SEC; dis-assembly of FP fibrils (20 μM) boiled with 2% SDS for 5 min, cooled, injected; room temperature

With “Sup35-NM, a protein segment comprising N-terminal and middle domains of the yeast S. cerevisiae prion Sup35 (domain or fragment)” the percent of total protein in the 41 min species (short fibril) [1] was 83%, the stoichiometry N [1] was 9 and the dissociated portion of fibrils [2] was 58%. The stoichiometry N [2] was 3 and 9, the percent monomer band on BN-PAGE [3] was 13% and the percentage of ATmer in the whole AG fibril [4] was 1.1%. It also gave a stoichiometry N [4] of 3, a percentage of dissociated fibrils [5] of 46% and a dissociated portion of fibrils [6] of 98%. The stoichiometry N [6] was 3.
